Measurements reported in PubChem BioAssay AID1259414 (Drosophila RNAi Screening Center, 2018).

- Aim: 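Fly genes that alter Wolbachia amount inside host cells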 (primary screen)
- System: Drosophila JW18 cells infected with Wolbachia
- Reagent: long dsRNA against Drosophila genes, 0.25 µg dsRNA per well of a 384-well plate
- Duration: 5 days
- Challenge: cells persistently infected with Wolbachia before knock-down; no added drug
- Measured: 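Automated imaging of bacterial rRNA staining divided by host cell count, reported as plate-normalised robust z-score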
- Direction: Wolbachia per cell robust z: higher = more Wolbachia per host cell than the plate typical
- Rule for the call: 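Active if absolute robust z reaches 1.5 in two or more of three replicates, leaving out multi- or no-target dsRNAs, genes unexpressed in JW18 and A1 wells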
The deposit covers about 24,000 reagents; this is a random part of those with a known target gene and a result. Over the whole deposit, about 1,210 (5%) are marked active. 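Inactive calls also include excluded dsRNAs with several or no targets, genes unexpressed in JW18, and well A1, regardless of score.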 Names joined by + are all predicted targets of the reagent.

Gene | DRSC id | Wolbachia per cell robust z, rep 1 | Wolbachia per cell robust z, rep 2 | Wolbachia per cell robust z, rep 3 | activity call
Gnptab | DRSC07057 | -3.14 | 0.108 | -0.483 | inactive
bru3 | DRSC09280 | 0.00231 | -0.599 | -0.237 | inactive
bru3 | DRSC09687 | -0.0726 | -0.742 | -1.54 | inactive
bru3 | DRSC09887 | 0.501 | -0.871 | -4.84 | inactive
bru3 | DRSC22732 | 0.663 | 0.24 | -0.949 | inactive
bru3 | DRSC28166 | -0.234 | -1.31 | -1.76 | inactive
bru3 | DRSC38591 | -0.0252 | 0.702 | -4.34 | inactive
CG7786 | DRSC07045 | -3.78 | -1.93 | -3.15 | inactive
CG7786 | DRSC26604 | 0.279 | -0.157 | 1.58 | inactive
nej | DRSC18006 | 0.576 | 0.228 | -0.184 | inactive
nej | DRSC18801 | 1.98 | 1.99 | 4.2 | active
nej | DRSC25087 | 1.01 | 0.668 | 0.588 | inactive
nej | DRSC26774 | 0.286 | 0.965 | 3.28 | inactive
CG16813 | DRSC24977 | -0.423 | -0.158 | 0.293 | inactive
Cpr47Eg | DRSC07330 | -0.138 | 0.281 | -0.409 | inactive
CG15014 | DRSC08468 | 0.745 | 0.6 | -0.123 | inactive
CG15014 | DRSC27374 | -1.08 | -0.155 | -0.645 | inactive
CG10405 | DRSC14238 | 0.873 | 0.736 | 1.1 | inactive
CG4278 | DRSC02741 | -0.668 | -1.21 | -0.876 | inactive
CG7203 | DRSC03026 | 0.403 | 1.58 | 1.04 | inactive
CG7203 | DRSC25657 | -0.663 | -0.611 | -0.344 | inactive
MagR | DRSC20092 | -1.37 | -0.119 | -1.5 | inactive
wtrw | DRSC14241 | -0.393 | -0.356 | 0.383 | inactive
wtrw | DRSC15278 | -0.403 | -0.721 | -1.71 | inactive
wtrw | DRSC29977 | 0.153 | 0.826 | 0.292 | inactive
CG8854 | DRSC07288 | 0.481 | -0.4 | 0.733 | inactive
CG8854 | DRSC24639 | 0.735 | 0.967 | 0.327 | inactive
CG13084 | DRSC02188 | 0.373 | 0.0101 | 1.69 | inactive
CG11369 | DRSC17779 | -0.0541 | -0.998 | -0.972 | inactive
Listericin | DRSC07334 | 0.393 | -4.31 | 0.315 | inactive
Listericin | DRSC24374 | 0.833 | 0.889 | 1.78 | inactive
CG9631 | DRSC14137 | 1.95 | -1.1 | -1.1 | inactive
CG8839 | DRSC07285 | -0.00387 | 1.08 | 0.784 | inactive
yin | DRSC18854 | -0.684 | -1.62 | 0.234 | inactive
yin | DRSC21889 | -2.03 | -0.919 | -0.382 | inactive
yin | DRSC38664 | -0.182 | 0.88 | -0.701 | inactive
RnrS | DRSC07533 | 2.42 | 2.99 | 5.05 | active
RnrS | DRSC23541 | 4.33 | 3.72 | 11.9 | active
Obp28a | DRSC03394 | -0.141 | 2.23 | 1.04 | inactive
Obp28a | DRSC25374 | -0.52 | 0.224 | -2.26 | inactive
IntS14 | DRSC00668 | 0.74 | -0.27 | -1.03 | inactive
Cluap1 | DRSC20637 | -0.000471 | 0.284 | 1.57 | inactive
Cluap1 | DRSC23735 | -0.949 | -1.32 | -0.975 | inactive
Hsf | DRSC07443 | -5.07 | 0.446 | -1.74 | active
Hsf | DRSC27700 | -0.4 | 0.625 | -0.24 | inactive
Su(Tpl) | DRSC10954 | 0.557 | -5.93 | 0.893 | inactive
Su(Tpl) | DRSC26497 | 0.902 | 0.68 | 0.764 | inactive
Usp12-46 | DRSC16175 | 0.481 | 1.06 | -1.19 | inactive
dnr1 | DRSC03948 | -1.5 | -0.642 | -0.776 | inactive
dnr1 | DRSC04122 | 0.417 | 1.04 | 0.0838 | inactive
dnr1 | DRSC26101 | -0.813 | 0.357 | -0.857 | inactive
Clic | DRSC19364 | -1.64 | -1.04 | -10.4 | active
sturkopf | DRSC08637 | 0.227 | -0.0835 | -0.258 | inactive
sturkopf | DRSC29932 | 1.15 | -0.649 | 0.674 | inactive
garz | DRSC07193 | -0.569 | 1.04 | -0.0883 | inactive
LysX | DRSC08678 | 0.461 | 1.22 | 0.478 | inactive
CG11837 | DRSC14397 | 0.0257 | 0.946 | -6.76 | inactive
Tsp74F | DRSC10508 | -0.159 | 1.14 | -0.534 | inactive
SdhB | DRSC05018 | 0.725 | 0.38 | 0.249 | inactive
SdhB | DRSC21367 | -1.01 | -0.375 | -1.07 | inactive
Cp16 | DRSC11119 | -0.657 | 1.2 | 1.4 | inactive
Cp16 | DRSC25549 | -0.705 | -1.71 | 0.565 | inactive
CG11018 | DRSC06024 | 1.45 | 0.887 | 0.61 | inactive
CG11018 | DRSC28771 | -1.38 | 1.39 | 0.149 | inactive
CysRS-m | DRSC07129 | -0.231 | 0.677 | 0.845 | inactive
CG15880 | DRSC00474 | -0.299 | -0.0408 | -7.46 | inactive
Cals | DRSC17196 | -0.982 | 0.917 | -0.814 | inactive
Cals | DRSC21661 | -1.69 | 0.269 | -1.77 | active
cyc | DRSC11337 | -2.76 | -1.74 | 0.414 | active
cuff | DRSC06315 | -0.412 | -0.1 | -2.57 | inactive
PH4alphaEFB | DRSC14473 | -0.112 | -0.332 | -2.86 | inactive
PH4alphaEFB | DRSC14950 | -4.68 | 0.303 | 0.0189 | inactive
CG4629 | DRSC00659 | -1.88 | -1.57 | -0.666 | inactive
CG4629 | DRSC27952 | 0.284 | 1.55 | 0.756 | inactive
c12.1 | DRSC18750 | -0.2 | -0.786 | 0.161 | inactive
c12.1 | DRSC25556 | -0.385 | -0.611 | -1.01 | inactive
CG15471 | DRSC18054 | -0.196 | 0.103 | 1.22 | inactive
CG15471 | DRSC26243 | 2.23 | 0.548 | -0.0986 | inactive
CG1792 | DRSC15290 | -0.141 | -0.384 | 0.484 | inactive
CG1792 | DRSC28745 | 0.252 | -1.56 | -1.51 | active
svr | DRSC17293 | -0.128 | 1.02 | 0.848 | inactive
svr | DRSC18841 | 1.38 | -0.0523 | 1.65 | inactive
svr | DRSC27397 | -0.243 | 0.107 | -0.731 | inactive
svr | DRSC38955 | 1.31 | 0.135 | -0.605 | inactive
scpr-C + scpr-B + scpr-A | DRSC15715 | -1.42 | -0.1 | -0.858 | inactive
CG33723 | DRSC37809 | 0.466 | -0.87 | 1.65 | inactive
CG14949 | DRSC08408 | 1.03 | -0.183 | 0.233 | inactive

Already shown: an excerpt of the list.
Gene | DRSC id | Wolbachia per cell robust z, rep 1 | Wolbachia per cell robust z, rep 2 | Wolbachia per cell robust z, rep 3 | activity call
SdhB | DRSC05018 | 0.725 | 0.38 | 0.249 | inactive
SdhB | DRSC21367 | -1.01 | -0.375 | -1.07 | inactive
Cp16 | DRSC11119 | -0.657 | 1.2 | 1.4 | inactive
Cp16 | DRSC25549 | -0.705 | -1.71 | 0.565 | inactive
CG11018 | DRSC06024 | 1.45 | 0.887 | 0.61 | inactive
CG11018 | DRSC28771 | -1.38 | 1.39 | 0.149 | inactive
CysRS-m | DRSC07129 | -0.231 | 0.677 | 0.845 | inactive
CG15880 | DRSC00474 | -0.299 | -0.0408 | -7.46 | inactive
Cals | DRSC17196 | -0.982 | 0.917 | -0.814 | inactive
Cals | DRSC21661 | -1.69 | 0.269 | -1.77 | active
cyc | DRSC11337 | -2.76 | -1.74 | 0.414 | active
cuff | DRSC06315 | -0.412 | -0.1 | -2.57 | inactive
PH4alphaEFB | DRSC14473 | -0.112 | -0.332 | -2.86 | inactive
PH4alphaEFB | DRSC14950 | -4.68 | 0.303 | 0.0189 | inactive
CG4629 | DRSC00659 | -1.88 | -1.57 | -0.666 | inactive
